Data published in patent publication US5506271A, “Method of treating papilloma virus infection using hypericin” (New York University, priority 1993, dated 1996).

System: RadLV
Test: 0.1% SDS denaturation / SDS-PAGE and sucrose gradient of hypericin-treated RadLV
Conditions: 35S-methionine labelled RadLV

With `Cc1cc(O)c2c(=O)c3c(O)cc(O)c4c5c(O)cc(O)c6c(=O)c7c(O)cc(C)c8c1c2c(c34)c(c78)c65` [hypericin] the “behaviour of treated virus on SDS-polyacrylamide gel electrophoresis / sucrose gradient” value was “aggregates of virus components can be observed to accumulate at the top of the gel; also recorded: hypericin comigrates with the virus particles”.

Entries after “also recorded” stand apart in the source; their conditions may differ.
